{"source": "PubChem BioAssay AID504761 (Drosophila RNAi Screening Center, 2011)", "aim": "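Genome-wide fly cell screen for genes dengue virus requires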 (primary screen)", "cells": "D.Mel-2 cells from Drosophila", "knock-down reagent": "long dsRNA against Drosophila genes", "conditions": "infection with dengue virus type 2; dose and infection time not stated", "measured": "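Cells stained for dengue envelope protein and imaged; percent of infected cells per well on duplicate plates, ranked by infection, with stained nuclei counted for cell number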", "direction": "infection score: higher = more virus-infected cells; cell count: higher = more cells in the well", "hit rule": "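Very low infection ranking in both replicate wells (chance probability at most 0.065), then a retest showing infection dropped 1.5-fold or more at p below 0.05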", "meaning of the calls": "active = confirmed: knock-down lowers infection; inactive = not picked or not confirmed", "note": "The deposit covers about 22,000 reagents; shown is an unselected part of those that have a named target and a result. Over the whole deposit, 116 (0.52%) are marked active. 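Calls depend on retest data that are not deposited; infection was ranked per plate without normalising between plates; the unit of the infection score is not given.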 The raw values are shown without normalisation. A number with no mark means an inactive call. Further read-outs or replicates are left out here. Not given: the amount of reagent, the time to read-out."}
{"predicted target": "Mgat4a (GeneID 39608)", "DRSC id": "DRSC09326", "infection score, replicate 1": 0.69, "cell count, replicate 1": 6543}
{"predicted target": "Mgat4a (GeneID 39608)", "DRSC id": "DRSC11070", "infection score, replicate 1": 2.5, "cell count, replicate 1": 6032}
{"predicted target": "Cpr11A (GeneID 32198)", "DRSC id": "DRSC19861", "infection score, replicate 1": 1.64, "cell count, replicate 1": 6515}
{"predicted target": "Cpr11A (GeneID 32198)", "DRSC id": "DRSC26786", "infection score, replicate 1": 3.48, "cell count, replicate 1": 6378}
{"predicted target": "CG14434 (GeneID 31632)", "DRSC id": "DRSC17927", "infection score, replicate 1": 6.64, "cell count, replicate 1": 6568}
{"predicted target": "CG1246 (GeneID 38330)", "DRSC id": "DRSC08275", "infection score, replicate 1": 19.1, "cell count, replicate 1": 4533}
{"predicted target": "Cdk12 (GeneID 40385)", "DRSC id": "DRSC11836", "infection score, replicate 1": 19.5, "cell count, replicate 1": 2310}
{"predicted target": "Cdk12 (GeneID 40385)", "DRSC id": "DRSC23323", "infection score, replicate 1": 7.62, "cell count, replicate 1": 3728}
{"predicted target": "Cdk12 (GeneID 40385)", "DRSC id": "DRSC29623", "infection score, replicate 1": 39.6, "cell count, replicate 1": 2241}
{"predicted target": "defl (GeneID 39141)", "DRSC id": "DRSC10300", "infection score, replicate 1": 3.35, "cell count, replicate 1": 4859}
{"predicted target": "CG17199 (GeneID 42401)", "DRSC id": "DRSC15192", "infection score, replicate 1": 1.48, "cell count, replicate 1": 6429}
{"predicted target": "FBXO11 (GeneID 41209)", "DRSC id": "DRSC16497", "infection score, replicate 1": 19.9, "cell count, replicate 1": 4766}
{"predicted target": "Obp18a (GeneID 32897)", "DRSC id": "DRSC19736", "infection score, replicate 1": 4.81, "cell count, replicate 1": 6003}
{"predicted target": "lush (GeneID 40136)", "DRSC id": "DRSC11364", "infection score, replicate 1": 7.02, "cell count, replicate 1": 6392}
{"predicted target": "CG8180 (GeneID 36713)", "DRSC id": "DRSC07092", "infection score, replicate 1": 13.7, "cell count, replicate 1": 1762}
{"predicted target": "CG8180 (GeneID 36713)", "DRSC id": "DRSC07093", "infection score, replicate 1": 9.5, "cell count, replicate 1": 6761}
{"predicted target": "CG7460 (GeneID 39973)", "DRSC id": "DRSC10850", "infection score, replicate 1": 2.14, "cell count, replicate 1": 5986}
{"predicted target": "CG7460 (GeneID 39973)", "DRSC id": "DRSC27927", "infection score, replicate 1": 9.37, "cell count, replicate 1": 1355}
{"predicted target": "CG11286 (GeneID 40919)", "DRSC id": "DRSC14293", "infection score, replicate 1": 7.18, "cell count, replicate 1": 6542}
{"predicted target": "CG14684 (GeneID 41281)", "DRSC id": "DRSC14907", "infection score, replicate 1": 3.6, "cell count, replicate 1": 5857}
{"predicted target": "deltaCOP (GeneID 45250)", "DRSC id": "DRSC18760", "infection score, replicate 1": 3.39, "cell count, replicate 1": 3093}
{"predicted target": "deltaCOP (GeneID 45250)", "DRSC id": "DRSC25961", "infection score, replicate 1": 2.85, "cell count, replicate 1": 2246}

A run of entries taken from the entries so far:
{"predicted target": "CG8180 (GeneID 36713)", "DRSC id": "DRSC07093", "infection score, replicate 1": 9.5, "cell count, replicate 1": 6761}
{"predicted target": "CG7460 (GeneID 39973)", "DRSC id": "DRSC10850", "infection score, replicate 1": 2.14, "cell count, replicate 1": 5986}
